Columns and labels:
[1] = molecular target: T1, Nicotinic acetylcholine receptor alpha6/alpha3/beta4 (Rattus norvegicus) (UniProt P04757+P12392+P43143); experiment: Inhibition of rat alpha6/alpha3beta4 nAChR expressed in Xenopus laevis oocytes assessed as inhibition of acetylcholine-induced current response at 10 uM in presence of peIA by two-electrode voltage-clamp method relative to control; assay type: cell-based; settings: Oocyte
[2] = molecular target: T1, Nicotinic acetylcholine receptor alpha6/alpha3/beta4 (Rattus norvegicus); experiment: Inhibition of rat alpha6/alpha3beta4 nAChR expressed in Xenopus laevis oocytes assessed as inhibition of acetylcholine-induced current response measured after 5 min by two-electrode voltage-clamp method relative to peIA; assay type: cell-based; settings: Oocyte
[3] = molecular target: T1, Nicotinic acetylcholine receptor alpha6/alpha3/beta4 (Rattus norvegicus); experiment: Inhibition of rat alpha6/alpha3beta4 nAChR expressed in Xenopus laevis oocytes assessed as inhibition of acetylcholine-induced current response by measuring fold change measured after 5 min by two-electrode voltage-clamp method relative to peIA; assay type: cell-based; settings: Oocyte
[4] = molecular target: T1, Nicotinic acetylcholine receptor alpha6/alpha3/beta4 (Rattus norvegicus); experiment: Inhibition of rat alpha6/alpha3beta4 nAChR expressed in Xenopus laevis oocytes assessed as inhibition of acetylcholine-induced current response at 10 uM measured after 5 min by two-electrode voltage-clamp method relative to control; assay type: cell-based; settings: Oocyte
[5] = molecular target: T2, Nicotinic acetylcholine receptor alpha6/alpha3/beta4 (Homo sapiens, UniProt P30926+P32297+Q15825); experiment: Inhibition of human alpha6/alpha3beta4 nAChR expressed in Xenopus laevis oocytes assessed as inhibition of acetylcholine-induced current response measured after 5 min by two-electrode voltage-clamp relative to peIA; assay type: cell-based; settings: Oocyte
[6] = molecular target: T2, Nicotinic acetylcholine receptor alpha6/alpha3/beta4; experiment: Inhibition of human alpha6/alpha3beta4 nAChR expressed in Xenopus laevis oocytes assessed as inhibition of acetylcholine-induced current response by measuring fold change measured after 5 min by two-electrode voltage-clamp method relative to peIA; assay type: cell-based; settings: Oocyte
Rattus norvegicus = species: Rattus norvegicus; experiment: Selectivity ratio of IC50 for rat alpha6beta4 nAChR to IC50 for rat alpha6/alpha3beta4 nAChR expressed in Xenopus laevis oocytes

Sequences of proteins named here, by UniProt entry; tags and fusion partners are left off.
UniProt P04757, whole entry, looked up: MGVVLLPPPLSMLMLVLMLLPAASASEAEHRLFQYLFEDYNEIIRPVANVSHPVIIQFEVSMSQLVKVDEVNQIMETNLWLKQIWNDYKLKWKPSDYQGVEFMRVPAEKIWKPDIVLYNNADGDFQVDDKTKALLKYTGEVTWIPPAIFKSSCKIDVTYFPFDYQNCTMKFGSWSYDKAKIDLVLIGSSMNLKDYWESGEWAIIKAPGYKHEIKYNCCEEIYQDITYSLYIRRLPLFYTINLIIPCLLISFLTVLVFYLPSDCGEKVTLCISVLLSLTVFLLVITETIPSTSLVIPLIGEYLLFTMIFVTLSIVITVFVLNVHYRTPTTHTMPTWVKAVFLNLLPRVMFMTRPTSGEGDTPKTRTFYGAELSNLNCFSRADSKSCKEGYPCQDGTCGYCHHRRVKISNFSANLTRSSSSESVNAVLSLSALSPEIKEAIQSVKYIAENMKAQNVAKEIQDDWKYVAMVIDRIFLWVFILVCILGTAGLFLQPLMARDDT
UniProt P12392, whole entry, looked up: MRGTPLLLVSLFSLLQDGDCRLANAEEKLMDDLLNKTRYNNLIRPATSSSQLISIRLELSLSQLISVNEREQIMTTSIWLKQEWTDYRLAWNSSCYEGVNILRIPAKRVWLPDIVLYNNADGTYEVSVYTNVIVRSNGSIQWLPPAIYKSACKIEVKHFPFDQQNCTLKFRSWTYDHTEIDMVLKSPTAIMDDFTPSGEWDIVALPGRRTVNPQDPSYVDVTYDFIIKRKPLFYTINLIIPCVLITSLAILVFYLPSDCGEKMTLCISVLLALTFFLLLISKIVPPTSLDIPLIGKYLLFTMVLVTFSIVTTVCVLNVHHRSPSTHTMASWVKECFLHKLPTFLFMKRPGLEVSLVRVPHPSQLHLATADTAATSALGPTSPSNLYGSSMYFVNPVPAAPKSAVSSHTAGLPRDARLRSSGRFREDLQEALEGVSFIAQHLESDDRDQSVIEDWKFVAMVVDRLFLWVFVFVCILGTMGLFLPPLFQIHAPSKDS
UniProt P43143, whole entry, looked up: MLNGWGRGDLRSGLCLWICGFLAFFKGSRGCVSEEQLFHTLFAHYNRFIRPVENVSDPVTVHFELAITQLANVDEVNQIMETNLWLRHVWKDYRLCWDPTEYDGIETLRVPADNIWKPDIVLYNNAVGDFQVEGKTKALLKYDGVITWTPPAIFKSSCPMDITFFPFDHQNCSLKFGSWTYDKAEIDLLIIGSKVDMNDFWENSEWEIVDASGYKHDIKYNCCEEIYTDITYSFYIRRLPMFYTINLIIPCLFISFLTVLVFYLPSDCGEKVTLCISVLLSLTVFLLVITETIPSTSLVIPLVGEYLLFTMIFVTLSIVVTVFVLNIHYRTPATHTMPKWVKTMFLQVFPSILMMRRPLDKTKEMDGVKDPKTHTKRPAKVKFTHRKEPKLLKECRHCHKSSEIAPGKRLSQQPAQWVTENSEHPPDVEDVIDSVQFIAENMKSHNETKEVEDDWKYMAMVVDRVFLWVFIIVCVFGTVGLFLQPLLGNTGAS
UniProt P30926, whole entry, looked up: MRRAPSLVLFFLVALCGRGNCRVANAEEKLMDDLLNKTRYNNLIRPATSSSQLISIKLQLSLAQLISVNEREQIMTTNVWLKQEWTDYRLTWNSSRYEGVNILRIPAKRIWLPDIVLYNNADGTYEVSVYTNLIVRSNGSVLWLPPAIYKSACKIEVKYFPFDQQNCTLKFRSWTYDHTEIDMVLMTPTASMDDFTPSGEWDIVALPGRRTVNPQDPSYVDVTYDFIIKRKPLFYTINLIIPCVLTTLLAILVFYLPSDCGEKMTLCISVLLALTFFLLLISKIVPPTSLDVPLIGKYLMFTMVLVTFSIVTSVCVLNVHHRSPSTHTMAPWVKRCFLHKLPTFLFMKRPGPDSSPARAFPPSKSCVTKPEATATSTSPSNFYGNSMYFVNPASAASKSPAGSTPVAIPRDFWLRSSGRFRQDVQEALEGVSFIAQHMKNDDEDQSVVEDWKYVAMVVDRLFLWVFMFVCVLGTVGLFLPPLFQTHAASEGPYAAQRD
UniProt P32297, whole entry, looked up: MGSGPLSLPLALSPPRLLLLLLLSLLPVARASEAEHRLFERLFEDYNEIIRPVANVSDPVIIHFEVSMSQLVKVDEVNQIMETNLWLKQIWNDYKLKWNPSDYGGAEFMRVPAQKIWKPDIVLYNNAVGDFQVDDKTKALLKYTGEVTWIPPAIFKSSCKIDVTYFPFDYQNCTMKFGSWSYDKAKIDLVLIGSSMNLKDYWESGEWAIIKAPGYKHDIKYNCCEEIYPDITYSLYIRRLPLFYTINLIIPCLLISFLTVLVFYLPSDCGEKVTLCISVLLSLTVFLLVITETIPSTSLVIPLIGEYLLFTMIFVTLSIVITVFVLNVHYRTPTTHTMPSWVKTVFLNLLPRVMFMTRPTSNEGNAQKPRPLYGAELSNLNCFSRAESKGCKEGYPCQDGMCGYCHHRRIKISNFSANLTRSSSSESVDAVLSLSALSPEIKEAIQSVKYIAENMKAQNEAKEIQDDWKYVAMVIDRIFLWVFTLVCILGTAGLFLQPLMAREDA
UniProt Q15825, whole entry, looked up: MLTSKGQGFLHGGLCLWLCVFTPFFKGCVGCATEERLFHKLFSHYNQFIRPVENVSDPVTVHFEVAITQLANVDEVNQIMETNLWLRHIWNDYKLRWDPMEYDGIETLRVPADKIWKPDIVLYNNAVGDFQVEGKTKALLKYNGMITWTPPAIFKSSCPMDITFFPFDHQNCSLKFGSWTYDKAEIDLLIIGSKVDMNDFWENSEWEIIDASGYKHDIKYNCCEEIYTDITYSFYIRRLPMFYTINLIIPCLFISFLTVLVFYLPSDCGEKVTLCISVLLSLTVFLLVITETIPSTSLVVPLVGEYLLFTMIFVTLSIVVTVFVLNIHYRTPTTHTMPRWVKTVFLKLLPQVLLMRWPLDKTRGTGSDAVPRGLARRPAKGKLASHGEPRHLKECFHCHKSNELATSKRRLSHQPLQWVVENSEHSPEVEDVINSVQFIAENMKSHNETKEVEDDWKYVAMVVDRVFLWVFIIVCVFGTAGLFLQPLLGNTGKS

## CC(C)C[C@@H]1NC(=O)[C@H](CCC(=O)O)NC(=O)[C@@H]2CCCN2C(=O)[C@H](Cc2cnc[nH]2)NC(=O)[C@H](CC(N)=O)NC(=O)[C@H](C(C)C)NC(=O)[C@H](CO)NC(=O)[C@@H]2CSSC[C@H](NC(=O)CN)C(=O)N[C@@H](CSSC[C@@H](C(N)=O)NC1=O)C(=O)N[C@@H](CO)C(=O)N[C@@H](C)C(=O)N1CCC[C@H]1C(=O)N[C@@H](C)C(=O)N2
[1]
  inhibition: 78%
[2]
  deltalogIC50: > 1.9
[3]
  fold change (FC): 3
[4]
  inhibition: 77%
[5]
  deltalogIC50: 3.1

## CC(C)C[C@@H]1NC(=O)[C@H](CCC(=O)O)NC(=O)[C@@H]2CCCN2C(=O)[C@H](Cc2cnc[nH]2)NC(=O)[C@H](CC(N)=O)NC(=O)[C@H](C(C)C)NC(=O)[C@H](CC(=O)O)NC(=O)[C@@H]2CSSC[C@H](NC(=O)CN)C(=O)N[C@@H](CSSC[C@@H](C(N)=O)NC1=O)C(=O)N[C@@H](CO)C(=O)N[C@@H](Cc1cnc[nH]1)C(=O)N1CCC[C@H]1C(=O)N[C@@H](C)C(=O)N2
[1]
  inhibition: 86%
[2]
  deltalogIC50: > 1.9
[4]
  inhibition: 77%
[5]
  deltalogIC50: 2.3

## CC(C)C[C@@H]1NC(=O)[C@H](CCC(=O)O)NC(=O)[C@@H]2CCCN2C(=O)[C@H](Cc2cnc[nH]2)NC(=O)[C@H](CC(N)=O)NC(=O)[C@H](C(C)C)NC(=O)[C@H](CO)NC(=O)[C@@H]2CSSC[C@H](NC(=O)CN)C(=O)N[C@@H](CSSC[C@@H](C(N)=O)NC1=O)C(=O)N[C@@H](CO)C(=O)N[C@@H](Cc1cnc[nH]1)C(=O)N1CCC[C@H]1C(=O)N[C@@H](C(C)C)C(=O)N2
[6]
  fold change (FC): < 3
Rattus norvegicus
  Ratio IC50: < 2
[2]
  deltalogIC50: -0.9
[3]
  fold change (FC): > 3
[5]
  deltalogIC50: -0.3

## CC[C@H](C)[C@@H]1NC(=O)[C@H](CCC(=O)O)NC(=O)[C@@H]2CCCN2C(=O)[C@H](Cc2cnc[nH]2)NC(=O)[C@H](CC(N)=O)NC(=O)[C@H](C(C)C)NC(=O)[C@H](CO)NC(=O)[C@@H]2CSSC[C@H](NC(=O)CN)C(=O)N[C@@H](CSSC[C@@H](C(N)=O)NC1=O)C(=O)N[C@@H](CO)C(=O)N[C@@H](Cc1cnc[nH]1)C(=O)N1CCC[C@H]1C(=O)N[C@@H](C)C(=O)N2
[6]
  fold change (FC): < 3
Rattus norvegicus
  Ratio IC50: < 2
[2]
  deltalogIC50: -0.1
[3]
  fold change (FC): < 3
[5]
  deltalogIC50: -0.4

## CC(C)C[C@@H]1NC(=O)[C@H](CCC(=O)O)NC(=O)[C@@H]2CCCN2C(=O)[C@H](C)NC(=O)[C@H](CC(N)=O)NC(=O)[C@H](C(C)C)NC(=O)[C@H](CO)NC(=O)[C@@H]2CSSC[C@H](NC(=O)CN)C(=O)N[C@@H](CSSC[C@@H](C(N)=O)NC1=O)C(=O)N[C@@H](CO)C(=O)N[C@@H](Cc1cnc[nH]1)C(=O)N1CCC[C@H]1C(=O)N[C@@H](C)C(=O)N2
[1]
  inhibition: 79%
[2]
  deltalogIC50: > 1.9
[3]
  fold change (FC): 3
[4]
  inhibition: 96%

## CC(C)C[C@@H]1NC(=O)[C@H](CCC(=O)O)NC(=O)[C@@H]2CCCN2C(=O)[C@H](Cc2cnc[nH]2)NC(=O)[C@H](CC(N)=O)NC(=O)[C@H](C(C)C)NC(=O)[C@H](CO)NC(=O)[C@@H]2CSSC[C@H](NC(=O)CN)C(=O)N[C@@H](CSSC[C@@H](C(N)=O)NC1=O)C(=O)N[C@@H](CO)C(=O)N[C@@H](Cc1cnc[nH]1)C(=O)N[C@@H](C)C(=O)N[C@@H](C)C(=O)N2
[1]
  inhibition: 82%
[2]
  deltalogIC50: > 1.9
[3]
  fold change (FC): 3
[4]
  inhibition: 82%
[5]
  deltalogIC50: 2.5

## CC(C)C[C@@H]1NC(=O)[C@H](CCC(=O)O)NC(=O)[C@@H]2CCCN2C(=O)[C@H](Cc2cnc[nH]2)NC(=O)[C@H](CCCNC(=N)N)NC(=O)[C@H](C(C)C)NC(=O)[C@H](Cc2cnc[nH]2)NC(=O)[C@@H]2CSSC[C@H](NC(=O)CN)C(=O)N[C@@H](CSSC[C@@H](C(N)=O)NC1=O)C(=O)N[C@@H](CO)C(=O)N[C@@H](Cc1cnc[nH]1)C(=O)N1CCC[C@H]1C(=O)N[C@@H](C(C)C)C(=O)N2
[6]
  fold change (FC): 16
[2]
  deltalogIC50: -1.9
[3]
  fold change (FC): 43
[5]
  deltalogIC50: -1.4
